# Results of single-concentration screens

From ChEMBL document CHEMBL3988442, “University of Dundee, Small-Polar-MMV Screening Library” (2021).

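Phenotypic screen: M. tuberculosis growth, glucose 7H9 medium, 3 days; the read-out is not stated. Concentration: 500 µM. Direction is inferred from retests: higher values go with more growth inhibition. Of about 18,000 compounds tested this way, about 1,400 (7.9%) reached 50% or more in at least one test.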

Each number is a percent effect as filed. The controls that fix the scale are not given in the record; negative values are as filed. The entries come from a sample that favours strong results.

Compound,percent effect
CN(C)CC1CCN(CC(=O)N(C)CC(F)(F)F)CC1,7.545%
CN1CCC(N(C)CC(O)COCc2cccs2)CC1 (stereo not given),11.02%
CC(C)c1nc(Cn2ncn(C)c2=O)cs1,3.926%
CCCc1ccc(C(=O)N2CCC(N)CC2)cc1,22.14%
CC1=C(C(=O)NCc2cccnc2)C(C)NC(=O)N1 (stereo not given),-9.849%
COc1ccc(OC)c(CNC(=O)C(C)NC(N)=O)c1 (stereo not given),-14.16%
Cc1ccc(CC(=O)N2CCOCC23CCOC3)cc1 (stereo not given),47.48%
Cc1cc(C(=O)NCC2CCCCC(=O)N2)n(C)n1 (stereo not given),-8.515%
COc1cc(C(=O)N2CCCC[C@H](N(C)C)C2)ccn1,13.63%
CCNC(=O)CCS(=O)(=O)c1cccc(Cl)c1,3.43%
CCn1cc(S(=O)(=O)N2CCSCC2)cn1,33.03%
Cc1cnc(C(=O)N(C)Cc2cc(C)on2)cn1,-2.81%
CC(OC(=O)c1nn(C)c(=O)c2ccccc12)C(N)=O (stereo not given),-21.53%
CCc1cccc2c1N(C(=O)[C@@H](N)CC)CC2,61.27%
CC(C)CN1CCN(c2ncccc2F)CC1,-12.99%
CCC1c2ccsc2CCN1CC(=O)N(C)C (stereo not given),27.68%
CNCC(=O)Nc1cccc(OC)c1,18.87%
CN(C)C(=O)C(CO)c1ccccc1 (stereo not given),5.252%
COC(C(=O)NCc1nc(C)c[nH]1)c1ccccc1 (stereo not given),22.5%
CCOC(=O)c1c(C)nc2c(C#N)cnn2c1C,-1.36%
CCN(Cc1cscn1)Cc1nc(COC)no1,11.74%
CCC(C)(NC(=O)Nc1ncnn1C)c1nccs1 (stereo not given),-14.32%
CS(=O)(=O)Nc1ccc2[nH]c(=O)oc2c1,-4.986%
Cn1nc2c(c1CN)CCCC2,-4.323%
COCCCOC1CN(C(=O)c2cc(F)ccc2C)C1,49.06%
CC(Sc1nccn1C1CC1)C(=O)NC(N)=O (stereo not given),23.15%
N#Cc1ccc(OCC(=O)Nc2ccccn2)cc1,47.66%
CCCN(CC1CC1)S(=O)(=O)N1CC[C@@H](O)C1,31.76%
CCc1cc(C(N)=O)sc1C,29.13%
CC(=O)NCC1CN(c2ncccc2F)CCO1 (stereo not given),56.97%
CCS(=O)(=O)N(C)CCCNc1ccc(C)c(C#N)n1,71.49%
CN(C)CCO[C@H]1CCOC[C@H]1NC(=O)c1cn[nH]c1,3.971%
CCCNS(=O)(=O)c1nc2nc(C)cc(C)n2n1,-9.632%
CN(C)c1cc(CNc2ncnc3nc[nH]c23)ccn1,14.86%
Brc1cc2c(cc1CN1CCCNCC1)OCO2,71.81%
Cc1cccc(NCCC(=O)NC2CCCC2)n1,53.87%
NC(=O)C1CCN(Cc2ccc(Br)c3cccnc23)C1 (stereo not given),17.31%
CS(=O)(=O)c1ccc(N2CCNCC2)cc1,5.784%
COCC(NC(=O)c1cccc(Cl)c1F)C(N)=O (stereo not given),6.356%
CC(NC(=O)c1ccc(Cl)c(S(C)(=O)=O)c1)C1CC1 (stereo not given),37.84%
CCC(=O)N1CCN(C(=O)Cc2ccc(Br)s2)CC1,38.57%
CCN1CCCC(CNC(=O)Nc2cc(C)nn2C)C1 (stereo not given),9.065%
CN1CC=C(CCN)CC1,-1.44%
CN(C1CCCC1)S(=O)(=O)NCCNc1ccccn1,59.26%
CC(=O)Nc1cccc(C(C)O)c1 (stereo not given),-8.474%
CCc1cc(C(=O)NC(CC)c2ncc[nH]2)[nH]n1 (stereo not given),2.801%
CCOc1cccc(CCNC(=O)N(C)C(C)C)n1,44.42%

Once more, the final 6:

Compound,percent effect
CCN1CCCC(CNC(=O)Nc2cc(C)nn2C)C1 (stereo not given),9.065%
CN1CC=C(CCN)CC1,-1.44%
CN(C1CCCC1)S(=O)(=O)NCCNc1ccccn1,59.26%
CC(=O)Nc1cccc(C(C)O)c1 (stereo not given),-8.474%
CCc1cc(C(=O)NC(CC)c2ncc[nH]2)[nH]n1 (stereo not given),2.801%
CCOc1cccc(CCNC(=O)N(C)C(C)C)n1,44.42%